Read-outs that look alike come from different tables or passages of the source.
Target: radiolabeled w.t. HIVYU2 gp120 binding to Cf2Th-CCR5 cells (Human immunodeficiency virus type 1 group M subtype B, UniProt P35961)
Assay type: cell-based, HIV

Compound | enhancement of gp120 binding to CCR5+ cells (in words) (w.t. gp120) | enhancement of gp120 binding to CCR5+ cells (in words)
CC1(C)CC(NC(=O)C(=O)Nc2ccc(Br)cc2)CC(C)(C)N1 [NBD-557] | comparably to NBD-556 | –
COc1ccnc2[nH]cc(C(=O)C(=O)N3CCN(C(=O)c4ccccc4)C[C@H]3C)c12 [BMS-806] | – | did not enhance the binding
